Test system: resistant isolates of S. aureus, S. pneumoniae and N. gonorrhoeae
Test: MIC versus isolates resistant to ciprofloxacin, the NBTI, novobiocin and ETX0914
Format: cell-based

C[C@@H]1CN2c3c(cc4c(N5C(=O)OC[C@@H]5C)noc4c3F)CC3(C(=O)NC(=O)NC3=O)[C@H]2[C@H](C)O1
susceptibility of fluoroquinolone resistant clinical isolates (S. aureus ARC2381, S. pneumoniae ARC2480, N. gonorrhoeae ARC4672, ARC4680, ARC4676): fully susceptible

O=C(O)c1cn(C2CC2)c2cc(N3CCNCC3)c(F)cc2c1=O [Ciprofloxacin 2, Ciprofloxacin, reference compound]
susceptibility of spontaneous ETX0914 resistant mutants (S. aureus and N. gonorrhoeae GyrB mutants): fully susceptible
